Here are results for one molecule from publication PMC4379099 (PLoS Pathogens, 2015).

Protein sequences, listed by entry. Tags and fused reporters are not part of them. Residues count along the entry.
UniProt C0LGT6, 25-649 limits assumed: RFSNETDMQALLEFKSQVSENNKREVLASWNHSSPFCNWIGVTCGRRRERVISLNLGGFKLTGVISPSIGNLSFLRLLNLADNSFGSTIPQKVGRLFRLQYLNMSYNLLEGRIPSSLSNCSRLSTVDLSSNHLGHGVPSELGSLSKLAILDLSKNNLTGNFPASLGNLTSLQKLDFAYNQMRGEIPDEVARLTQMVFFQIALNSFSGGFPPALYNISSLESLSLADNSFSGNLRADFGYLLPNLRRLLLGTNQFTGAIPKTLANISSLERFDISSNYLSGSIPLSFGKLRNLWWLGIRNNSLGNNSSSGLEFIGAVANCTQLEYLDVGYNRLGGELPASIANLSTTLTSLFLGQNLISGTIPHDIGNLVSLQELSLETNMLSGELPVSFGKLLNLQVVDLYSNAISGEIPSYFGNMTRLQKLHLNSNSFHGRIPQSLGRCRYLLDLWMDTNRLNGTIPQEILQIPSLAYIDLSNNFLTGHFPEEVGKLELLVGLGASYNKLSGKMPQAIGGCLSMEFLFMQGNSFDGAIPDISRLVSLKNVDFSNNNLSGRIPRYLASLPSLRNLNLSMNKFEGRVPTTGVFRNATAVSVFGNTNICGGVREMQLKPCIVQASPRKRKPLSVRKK
UniProt C0LGT6, 25-1031 limits assumed: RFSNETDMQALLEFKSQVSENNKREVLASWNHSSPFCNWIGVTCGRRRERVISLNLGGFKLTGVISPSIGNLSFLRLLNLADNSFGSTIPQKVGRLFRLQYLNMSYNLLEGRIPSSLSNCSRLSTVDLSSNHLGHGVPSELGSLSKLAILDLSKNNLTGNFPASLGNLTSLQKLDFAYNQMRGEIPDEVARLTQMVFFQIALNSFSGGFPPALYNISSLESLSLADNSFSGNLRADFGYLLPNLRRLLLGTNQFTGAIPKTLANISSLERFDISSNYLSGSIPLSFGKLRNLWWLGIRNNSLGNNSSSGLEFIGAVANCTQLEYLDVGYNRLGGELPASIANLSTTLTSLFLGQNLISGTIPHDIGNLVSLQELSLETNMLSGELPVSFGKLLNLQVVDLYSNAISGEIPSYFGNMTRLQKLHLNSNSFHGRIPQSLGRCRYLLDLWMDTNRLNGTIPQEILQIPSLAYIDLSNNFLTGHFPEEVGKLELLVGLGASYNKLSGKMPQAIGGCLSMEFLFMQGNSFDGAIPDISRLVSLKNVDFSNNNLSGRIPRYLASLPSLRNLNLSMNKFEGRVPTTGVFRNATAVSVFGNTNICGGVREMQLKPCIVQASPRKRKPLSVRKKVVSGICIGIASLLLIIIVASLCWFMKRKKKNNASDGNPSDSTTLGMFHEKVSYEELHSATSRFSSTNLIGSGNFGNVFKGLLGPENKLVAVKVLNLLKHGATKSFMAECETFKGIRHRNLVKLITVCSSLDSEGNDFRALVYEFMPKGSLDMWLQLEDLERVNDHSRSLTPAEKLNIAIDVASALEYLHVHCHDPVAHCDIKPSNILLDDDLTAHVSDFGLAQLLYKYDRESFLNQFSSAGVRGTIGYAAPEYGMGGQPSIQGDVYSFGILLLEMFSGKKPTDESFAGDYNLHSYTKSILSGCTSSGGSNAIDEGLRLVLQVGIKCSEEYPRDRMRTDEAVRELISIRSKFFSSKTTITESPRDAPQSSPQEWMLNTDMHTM
UniProt Q1MX30, 651-1025 limits assumed: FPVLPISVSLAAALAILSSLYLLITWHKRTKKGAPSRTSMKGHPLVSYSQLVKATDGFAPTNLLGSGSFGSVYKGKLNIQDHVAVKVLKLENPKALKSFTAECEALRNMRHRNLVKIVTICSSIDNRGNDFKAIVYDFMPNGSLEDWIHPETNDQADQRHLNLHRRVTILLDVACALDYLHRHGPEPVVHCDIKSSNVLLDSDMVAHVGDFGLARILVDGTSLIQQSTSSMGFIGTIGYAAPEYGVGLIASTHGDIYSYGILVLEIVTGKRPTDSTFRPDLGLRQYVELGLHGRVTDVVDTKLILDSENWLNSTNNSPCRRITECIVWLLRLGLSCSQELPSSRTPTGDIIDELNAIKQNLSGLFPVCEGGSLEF

Molecules are shown by their SMILES. This is a selection: effects in other tests are not listed, and their absence says nothing.

Assay [1] deals with Arabidopsis cell cultures. Particulars: read-out: EC50 value (medium alkalization), double alanine substitution control, ref [27]; cited from earlier work.
Assay [2] concerns the target T1, EFR (Arabidopsis thaliana, UniProt C0LGT6). Put plainly: MAP kinase activation in Ubi::EFR::GFP rice leaves. The assay is classed as cell-based, Arabidopsis (expressed in rice). Conditions: 1 μM, 0-60 minutes, anti-p42/44 western blot. In general terms: In western blotting, separated proteins are transferred to a membrane and probed.
Assay [3] has as its target T2, EFR::XA21 (UniProt C0LGT6+Q1MX30). The assay is described as follows: Defense marker gene expression (qRT-PCR) in Ubi::EFR::XA21::GFP rice leaves. Format: cell-based, Arabidopsis/rice (expressed in rice). Background: Real-time PCR tracks product formation cycle by cycle.
The target of assay [4] is T2, EFR::XA21. The assay is described as follows: ROS production in Ubi::EFR::XA21::GFP rice leaves (chimeric receptor). The assay is classed as cell-based, Arabidopsis/rice (expressed in rice). Conditions: 100 nM peptide, mature leaves, at least six biological replicates.
Assay [5] deals with T2, EFR::XA21. The assay is described as follows: MAP kinase activation in Ubi::EFR::XA21::GFP rice leaves. Format: cell-based, Arabidopsis/rice (expressed in rice). Conditions: 1 μM, 0-60 minutes, anti-p42/44 western blot.
For assay [6], the target named is T1, EFR. Put plainly: ROS production in Ubi::EFR::GFP rice leaves (EFR with C-terminal GFP). Format: cell-based, Arabidopsis (expressed in rice). Particulars: 100 nM peptide, mature leaves, at least six biological replicates.
The target of assay [7] is T1, EFR. Put plainly: Defense marker gene expression (qRT-PCR) in Ubi::EFR::GFP rice leaves. The assay is classed as cell-based, Arabidopsis (expressed in rice). Conditions: 500 nM peptide; 2 and 12 hours; qRT-PCR normalized to actin; EFR::GFP lines.

As a reminder, the EC50 is the midpoint of the concentration-response curve. On to `CC[C@H](C)[C@H](NC(=O)[C@@H](NC(=O)CNC(=O)[C@@H](NC(=O)[C@H](CC(N)=O)NC(=O)[C@@H](NC(=O)[C@H](Cc1c[nH]cn1)NC(=O)[C@@H]1CCCN1C(=O)[C@H](CCCCN)NC(=O)[C@@H](NC(=O)[C@H](CCCNC(=N)N)NC(=O)[C@H](CCC(=O)O)NC(=O)[C@H](Cc1ccccc1)NC(=O)[C@H](CCCCN)NC(=O)[C@H](C)NC(=O)[C@H](CCCCN)NC(=O)[C@H](C)NC(C)=O)[C@@H](C)O)C(C)C)C(C)C)[C@@H](C)O)C(=O)NCC(=O)O`, for which, in assay [1], the EC50 is 0.2 nM. In addition, the MAP kinase activation result in assay [2] and in assay [5] was “induced MAP kinase activation” throughout. Further, the “PR10b and Os04g10010 expression” value in assay [3] (500 nM peptide, 2 and 12 hours, qRT-PCR normalized to actin, EFR::XA21::GFP lines) is “up-regulated”; in assay [7] it was “up-regulated”. For the same molecule, the “PR10b expression compared to EFR::GFP expressing lines” value in assay [3] (500 nM, Tukey-Kramer HSD) is listed as “higher PR10b expression at 12 hours”. For the same molecule, the ROS production result in assay [4] and in assay [6] was “ligand dependent ROS production” in each case.
